# B1: VRC01gl Fab with Q39LH and comL (Fab, V domains shown)
# VH: not shown
# VL: EIVLTQSPATLSLSPGERATLSCRASQSVSSYLAWYQQKPGQAPRLLIYDASNRATGIPARFSGSGSGTDFTLTISSLEPEDFAVYYCQQYEFFGQGTKVQVDI
# B2: VRC01gl Fab with Q39LH (Fab, V domains shown)
# VH: not shown
# VL: EIVLTQSPATLSLSPGERATLSCRASQSVSSYLAWYQQKPGQAPRLLIYDASNRATGIPARFSGSGSGTDFTLTISSLEPEDFAVYYCQQYEFFGQGTKLEIK
# Columns and labels:
# [1] = biological target: eOD-GT6; assay: SPR
# [2] = biological target: eOD-GT6; assay: SPR; remark: listed apart in the source
binder,measurement,setting,value
B1,koff,[1],0.000247 s⁻¹
same,Kd,[2],3.81 nM
B2,koff,[1],0.000581 s⁻¹
same,Kd,[2],11.7 nM

# — publication PMC8761896 (2021)
